Test results taken from ChEMBL document CHEMBL3044797 (Crop Prot, 2008).

Legend:
[1] = system: Fusarium graminearum; test: Fungicidal activity against Fusarium graminearum infested wheat field assessed as frequency of resistance at 750 g ai/ha applied upon initiation of flowering measured after 14 days post compound treatment
[2] = system: Fusarium graminearum; test: Fungicidal activity against Fusarium graminearum infested wheat field assessed as frequency of resistance at 500 g ai/ha applied upon initiation of flowering measured after 14 days post compound treatment

Structure (SMILES)	Activity [1] [%]	Activity [2] [%]
COC(=O)Nc1nc2ccccc2[nH]1	13.4	
CCOC(=O)/C(C#N)=C(/N)c1ccccc1		1.39
